Data published in publication doi:10.1101/2023.08.28.555062, “Discovery of 2-amide-3-methylester thiophenes that target SARS-CoV-2 Mac1 and repress coronavirus replication, validating Mac1 as an anti-viral target” (bioRxiv, 2023).

Target: SARS-CoV-2 Mac1 (Severe acute respiratory syndrome coronavirus 2, UniProt P0DTD1)
Conditions: Table 1, commercial analogs, n=3; for IC50 (pIC50 ± SEM): pIC50 ± SEM: given with negative sign; for IC50: read-out: IC50 (pIC50 ± SEM): IC50 (converted)

SMILES | IC50 (pIC50 ± SEM): pIC50 ± SEM | IC50 [µM]
COC(=O)c1c(NC(=O)C2C3CCC(C3)C2C(=O)O)sc2c1CCCCC2 (stereo not shown) | −3.89 ± 0.02 | 130
COC(=O)c1c(NC(=O)C2C3CCC(C3)C2C(=O)O)sc2c1CCCCCC2 (stereo not shown) | −5.11 ± 0.02 | 7.8
